Molecular target: guanylyl cyclase C (GC-C), as expressed on T84 human colon carcinoma cells (human) (UniProt P25092)
Test: cell-based or functional assay

Protein sequences, listed by entry. Tags and fused reporters are not part of them. Residues count along the entry.
UniProt P25092, 24-1073: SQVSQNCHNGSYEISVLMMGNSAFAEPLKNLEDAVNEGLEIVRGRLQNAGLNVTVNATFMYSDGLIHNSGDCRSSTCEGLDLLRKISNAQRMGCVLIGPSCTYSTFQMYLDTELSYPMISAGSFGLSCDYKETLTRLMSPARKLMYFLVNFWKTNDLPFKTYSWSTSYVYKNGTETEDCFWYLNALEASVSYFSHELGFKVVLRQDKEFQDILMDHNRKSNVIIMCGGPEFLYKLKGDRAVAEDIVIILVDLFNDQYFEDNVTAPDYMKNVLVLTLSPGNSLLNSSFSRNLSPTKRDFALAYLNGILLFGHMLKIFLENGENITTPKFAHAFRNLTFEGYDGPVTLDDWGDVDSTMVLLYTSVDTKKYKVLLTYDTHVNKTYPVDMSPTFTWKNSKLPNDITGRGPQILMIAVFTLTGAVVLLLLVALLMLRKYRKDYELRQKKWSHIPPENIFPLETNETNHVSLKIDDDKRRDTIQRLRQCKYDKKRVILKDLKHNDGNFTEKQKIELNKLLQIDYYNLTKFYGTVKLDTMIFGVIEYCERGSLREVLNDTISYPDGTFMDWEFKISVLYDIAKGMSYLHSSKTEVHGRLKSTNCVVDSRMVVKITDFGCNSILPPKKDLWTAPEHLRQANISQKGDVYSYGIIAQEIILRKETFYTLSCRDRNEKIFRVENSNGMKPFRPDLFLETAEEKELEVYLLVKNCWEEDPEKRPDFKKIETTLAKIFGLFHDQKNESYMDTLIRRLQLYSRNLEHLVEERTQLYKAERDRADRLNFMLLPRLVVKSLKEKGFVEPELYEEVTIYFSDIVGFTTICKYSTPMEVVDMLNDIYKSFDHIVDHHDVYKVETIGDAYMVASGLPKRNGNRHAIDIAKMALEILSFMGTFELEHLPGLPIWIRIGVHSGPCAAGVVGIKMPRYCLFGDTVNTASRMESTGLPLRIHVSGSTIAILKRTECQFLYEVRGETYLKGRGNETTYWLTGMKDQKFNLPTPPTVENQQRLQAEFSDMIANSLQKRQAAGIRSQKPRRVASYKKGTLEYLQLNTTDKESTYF

E. coli heat-stable enterotoxin (ST) (peptide)
IC50 for ST as an anticancer agent in vitro: 14 nM
